PubChem BioAssay AID1259414 – Drosophila RNAi Screening Center, 2018
Screen: 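Fly genes that alter Wolbachia amount inside host cells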 (primary screen). System: Drosophila JW18 cells infected with Wolbachia. Reagent: long dsRNA against Drosophila genes, 0.25 µg dsRNA per well of a 384-well plate. Duration: 5 days. Challenge: cells persistently infected with Wolbachia before knock-down; no added drug. Measured: 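Automated imaging of bacterial rRNA staining divided by host cell count, reported as plate-normalised robust z-score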. Reading the numbers: Wolbachia per cell robust z: higher = more Wolbachia per host cell than the plate typical. Hit rule: 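Hit when robust z is 1.5 or more, or -1.5 or less, in at least two of three replicates; excludes dsRNAs with several or no targets, genes not expressed in JW18 and well A1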.
In all, the deposit lists about 24,000 reagents; shown is a random part of those with a known target gene and a result. Over the whole deposit, about 1,210 (5%) were called active. 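Inactive calls also include excluded dsRNAs with several or no targets, genes unexpressed in JW18, and well A1, regardless of score.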 Reagents against one gene are numbered here. No sequences are given here.

The opening 2 records as a preview:
Xe7 | Wolbachia per cell robust z, rep 1 = -6.05; Wolbachia per cell robust z, rep 2 = -0.618; Wolbachia per cell robust z, rep 3 = -0.434; outcome = inactive
Ir31a | Wolbachia per cell robust z, rep 1 = 0.901; Wolbachia per cell robust z, rep 2 = -1.14; Wolbachia per cell robust z, rep 3 = -0.466; outcome = inactive

The list itself, from the start:
Xe7 | Wolbachia per cell robust z, rep 1 = -6.05; Wolbachia per cell robust z, rep 2 = -0.618; Wolbachia per cell robust z, rep 3 = -0.434; outcome = inactive
Ir31a | Wolbachia per cell robust z, rep 1 = 0.901; Wolbachia per cell robust z, rep 2 = -1.14; Wolbachia per cell robust z, rep 3 = -0.466; outcome = inactive
AOX1 #1 | Wolbachia per cell robust z, rep 1 = -0.134; Wolbachia per cell robust z, rep 2 = -0.749; Wolbachia per cell robust z, rep 3 = -0.741; outcome = inactive
AOX1 #2 | Wolbachia per cell robust z, rep 1 = 0.4; Wolbachia per cell robust z, rep 2 = 0.138; Wolbachia per cell robust z, rep 3 = -1.83; outcome = inactive
CG32263 #1 | Wolbachia per cell robust z, rep 1 = 0.828; Wolbachia per cell robust z, rep 2 = -5.52; Wolbachia per cell robust z, rep 3 = 1.23; outcome = inactive
CG32263 #2 | Wolbachia per cell robust z, rep 1 = -0.0565; Wolbachia per cell robust z, rep 2 = -0.424; Wolbachia per cell robust z, rep 3 = 0.243; outcome = inactive
SmydA-2 | Wolbachia per cell robust z, rep 1 = -0.59; Wolbachia per cell robust z, rep 2 = -1.5; Wolbachia per cell robust z, rep 3 = 0.0411; outcome = inactive
CG5986 #1 | Wolbachia per cell robust z, rep 1 = -0.485; Wolbachia per cell robust z, rep 2 = 0.179; Wolbachia per cell robust z, rep 3 = -0.396; outcome = inactive
CG5986 #2 | Wolbachia per cell robust z, rep 1 = -0.432; Wolbachia per cell robust z, rep 2 = -0.66; Wolbachia per cell robust z, rep 3 = 0.193; outcome = inactive
CG30222 #1 | Wolbachia per cell robust z, rep 1 = 0.151; Wolbachia per cell robust z, rep 2 = 0.763; Wolbachia per cell robust z, rep 3 = -0.73; outcome = inactive
CG30222 #2 | Wolbachia per cell robust z, rep 1 = -0.656; Wolbachia per cell robust z, rep 2 = -0.224; Wolbachia per cell robust z, rep 3 = -0.651; outcome = inactive
CG4042 #1 | Wolbachia per cell robust z, rep 1 = 0.131; Wolbachia per cell robust z, rep 2 = -0.584; Wolbachia per cell robust z, rep 3 = 0.562; outcome = inactive
CG4042 #2 | Wolbachia per cell robust z, rep 1 = -1.9; Wolbachia per cell robust z, rep 2 = -0.724; Wolbachia per cell robust z, rep 3 = -2.51; outcome = active
mmd #1 | Wolbachia per cell robust z, rep 1 = -0.732; Wolbachia per cell robust z, rep 2 = -0.843; Wolbachia per cell robust z, rep 3 = 0.462; outcome = inactive
mmd #2 | Wolbachia per cell robust z, rep 1 = -3.7; Wolbachia per cell robust z, rep 2 = 0.166; Wolbachia per cell robust z, rep 3 = -3.23; outcome = active
mmd #3 | Wolbachia per cell robust z, rep 1 = -3.7; Wolbachia per cell robust z, rep 2 = -0.0261; Wolbachia per cell robust z, rep 3 = -1.53; outcome = inactive
CG10301 | Wolbachia per cell robust z, rep 1 = -1.36; Wolbachia per cell robust z, rep 2 = -2.55; Wolbachia per cell robust z, rep 3 = 0.271; outcome = inactive
CG6707 | Wolbachia per cell robust z, rep 1 = -0.746; Wolbachia per cell robust z, rep 2 = -6.02; Wolbachia per cell robust z, rep 3 = -3.01; outcome = active
CG11560 #1 | Wolbachia per cell robust z, rep 1 = 0.157; Wolbachia per cell robust z, rep 2 = -0.168; Wolbachia per cell robust z, rep 3 = -1.52; outcome = inactive
CG11560 #2 | Wolbachia per cell robust z, rep 1 = -0.0511; Wolbachia per cell robust z, rep 2 = 0.0239; Wolbachia per cell robust z, rep 3 = 0.0857; outcome = inactive
Gr9a | Wolbachia per cell robust z, rep 1 = -0.814; Wolbachia per cell robust z, rep 2 = 0.502; Wolbachia per cell robust z, rep 3 = 0.932; outcome = inactive
atk #1 | Wolbachia per cell robust z, rep 1 = -2.66; Wolbachia per cell robust z, rep 2 = 1.1; Wolbachia per cell robust z, rep 3 = 0.418; outcome = inactive
atk #2 | Wolbachia per cell robust z, rep 1 = 0.194; Wolbachia per cell robust z, rep 2 = 1.29; Wolbachia per cell robust z, rep 3 = -1.17; outcome = inactive
atk #3 | Wolbachia per cell robust z, rep 1 = 1.51; Wolbachia per cell robust z, rep 2 = 1.32; Wolbachia per cell robust z, rep 3 = 0.73; outcome = inactive
